Measurements reported in PubChem BioAssay AID504761 (Drosophila RNAi Screening Center, 2011)
The deposit covers about 22,000 reagents; shown is an unselected part of those that have a named target and a result. Over the whole deposit, 116 (0.52%) are marked active. 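Calls depend on retest data that are not deposited; infection was ranked per plate without normalising between plates; the unit of the infection score is not given.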 Reagents against one gene are numbered here. Not all columns of the deposit are shown. Reagent sequences are not shown. Not stated in the record: the amount of reagent, the time to read-out.

Aim: 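Fly genes whose silencing reduces dengue virus type 2 infection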 (primary screen)
Cells: D.Mel-2 cells from Drosophila
Reagent: long dsRNA against Drosophila genes
Conditions: infection with dengue virus type 2; dose and infection time not stated
Detection: 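Per well on two replicate plates, imaging gave the percent of cells positive for viral envelope protein, ranked by infection, and a nuclear count of cells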
Reading the numbers: infection score: higher = more virus-infected cells
Rule for the call: 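Low infection ranks in the two replicates (chance level up to 0.065) followed by a retest with a 1.5-fold or larger significant decrease, p below 0.05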
Calls: active = confirmed: knock-down lowers infection; inactive = not picked or not confirmed

ap (GeneID 35509)
- infection score, replicate 1: 10.4
- Outcome: inactive

CG12836 (GeneID 35630)
- infection score, replicate 1: 15.6
- Outcome: inactive

Tps1 (GeneID 33642) #1
- infection score, replicate 1: 4.35
- Outcome: inactive

Tps1 (GeneID 33642) #2
- infection score, replicate 1: 10.5
- Outcome: inactive

CG14657 (GeneID 40602) #1
- infection score, replicate 1: 1.85
- Outcome: inactive

CG14657 (GeneID 40602) #2
- infection score, replicate 1: 6.01
- Outcome: inactive

betaNACtes2 (GeneID 32386)
- infection score, replicate 1: 5.12
- Outcome: inactive

Dhc62B (GeneID 38226)
- infection score, replicate 1: 3.97
- Outcome: inactive

CG30373 (GeneID 246573) #1
- infection score, replicate 1: 0.97
- Outcome: inactive

CG30373 (GeneID 246573) #2
- infection score, replicate 1: 1.12
- Outcome: inactive

CG32027 (retired record) (GeneID 317830)
- infection score, replicate 1: 1.7
- Outcome: inactive

CG31139 (GeneID 42698)
- infection score, replicate 1: 3.4
- Outcome: inactive

CG13133 (GeneID 34342)
- infection score, replicate 1: 5.01
- Outcome: inactive

Spn42De (GeneID 35602) #1
- infection score, replicate 1: 12.2
- Outcome: inactive

Spn42De (GeneID 35602) #2
- infection score, replicate 1: 13
- Outcome: inactive

Mtl (GeneID 43319)
- infection score, replicate 1: 3.3
- Outcome: inactive

Dsp1 (GeneID 117294) #1
- infection score, replicate 1: 2.3
- Outcome: inactive

Dsp1 (GeneID 117294) #2
- infection score, replicate 1: 8.86
- Outcome: inactive

Upf3 (GeneID 37792) #1
- infection score, replicate 1: 33.6
- Outcome: inactive

Upf3 (GeneID 37792) #2
- infection score, replicate 1: 24.4
- Outcome: inactive

CG8664 (GeneID 32719)
- infection score, replicate 1: 2.33
- Outcome: inactive

Rfk (GeneID 40936) #1
- infection score, replicate 1: 6.46
- Outcome: inactive

Rfk (GeneID 40936) #2
- infection score, replicate 1: 20.2
- Outcome: inactive

CG31806 (GeneID 261615) #1
- infection score, replicate 1: 15.1
- Outcome: inactive

CG31806 (GeneID 261615) #2
- infection score, replicate 1: 10.6
- Outcome: inactive

Dus4 (GeneID 35179)
- infection score, replicate 1: 10
- Outcome: inactive

HisT (GeneID 35697) #1
- infection score, replicate 1: 0.03
- Outcome: inactive

HisT (GeneID 35697) #2
- infection score, replicate 1: 16.8
- Outcome: inactive
